Test results: paper PMC9603713
The exact form of at least one protein or probe is not confirmed.

Tested on: His6-CpxR phosphorylated (CpxR-P)
Assay: EMSA
Details: acetyl phosphate-phosphorylated, 20 mM Tris-HCl pH 7.5, 50 mM KCl, 1 mM DTT, 5% glycerol, 20 min at room temperature, protein details: His6 (pQE80), label: none (ethidium bromide stain), probe letters rebuilt from the primers and the genome

“CATGACGGCAGCGGTAACTATGCGCATCATTTGCTCCCAAAATCTTTCTGTCGCGATTCAACGATAGAGAGTTTACGATTCAGGCTGCAAACATGCGTCAGGGGGTGTAAAACAACGTAAAGTCATGGATTAGCGACGTCTGATGACGTAATTTCTGCCTCGGAGGTATTTAAACAATGAATAAAATCCTGTTAGTTGATGATGACCGAGAGCTGACTTCCCTATTAAAGGAGCTGCTCGAGATGGAAGGCTTCAACGTGATTGTTGCCCACGATGGGGAACAGGCGCTTGATCTTCTGGACGACAGCATTGATTTACTTTTGCTTGACGTAATGATGCCGAAGAAAAATGGTATCGACACATTAAAAGCACTTCGCCAGACACACCAGACGCCTGTCATTATGTTGACGGCGCGCGGCAGTGAACTTGATCGCGTTCTCGGCCTTGAGCTGGGCGCAGATGACTATCTCCCGAAACCGTTTAATGATCGTGAGCTGGTGGCACGTATTCGCGCGATCCTGCGCCGTTCGCACTGGAGCGAGCAACAGCAAAAC (double strand) [cpxP regulatory region]”: binds (positive control, recombinant …).

“TTAATAAAAATAAAAAAGTTAGCCTGATTACTAAAGATGTTTGCAGCGTATTCTTGAGATTGAGCAAATTCATAATGCTTCCCTCCAGTTGCCTGTTGCAAAATCTTTGGCACTTGATCACTATCGCAGTACATATAGTTTCATCAGAAGATTAATCGATGGTGTTATCATTAGGAAGATAAATTTCTTCATATATAACCCAGTCGATGACTACAATTACTTTTTAATAAGATGGCGATGTAAAAACATCGTAACAGTTTATTTAATAAATAATTTTTCAAATTGTAAGTTTTTA (double strand) [ssrAB -55/+240]”: binds (2.0 uM, recombinant protein).

“TTCGGCCCTGATATCCTGAATTAATGGAATGCCTTTTAAAACTGCCAGCATGAATCCCTCCTCAGACATAAATGGGAGTTTCTATCAAATTCGCTCACAACCACATCCGTAAAAAGCCTGATTCACATTTATTTCGACTATACTCTTCTTGTACAATATCAGGATGCTGTCTACATATACCTTGTCACAGGCGATTCTATCATTCGGATTTTCCGATAAATTCACAATTACATTTTCAGCATTGACATAAAAACTTACAATTTGAAAAATTATTTATTAAATAAACTGTTACGATGTTTTTACATCGCCATCTTATTAAAAAGTAATTGTAGTCATCGACTGGGTTATATATGAAGAAATTTATCTTCCTAATGATAACACCATCGATTAATCTTCTGATGAAACTATATGTACTGCGATAGTGATCAAGTGCCAAAGATTTTGCAACAGGCAACTGGAGGGAAGCATTATGAATTTGCTCAATCTCAAGAATACGCTGCAAACATCTTTAGTAATCAGGCTAACTTTTTTATTTTTATTAACAACAATAATTATTTGGCTGCTATCTGTGCTTACCGCAGCTTATATATCAATGGTTCAGAAACGGCAGCATATAATAGAGGATTTATCCGTTCTATCCGAGATGAATATTGTACTAAGCAATCAACGGTTTGAAGAAGCTGAACGTGACGCTAAAAATTTAATGTATCAATGCTCATTAGCGACTGAGATTCATCATAACGATATTTTCCCTGAGGTGAGCCGGCATCTATCTGTCGG (double strand) [ssrAB -302/+478]”: binds (shift at 1.0 and 2.0 uM, recombinant protein).
